Source: publication PMC6899631, “An essential pentatricopeptide repeat protein in the apicomplexan remnant chloroplast”
The exact form of at least one protein or probe is not confirmed. At least one verdict rests on a figure or table, not on a statement of the authors. Protein sequences can lack the tags named with them.

Target: T1, PfPPR1 (tag removed) (UniProt Q8IM30)
T1 sequence (looked up): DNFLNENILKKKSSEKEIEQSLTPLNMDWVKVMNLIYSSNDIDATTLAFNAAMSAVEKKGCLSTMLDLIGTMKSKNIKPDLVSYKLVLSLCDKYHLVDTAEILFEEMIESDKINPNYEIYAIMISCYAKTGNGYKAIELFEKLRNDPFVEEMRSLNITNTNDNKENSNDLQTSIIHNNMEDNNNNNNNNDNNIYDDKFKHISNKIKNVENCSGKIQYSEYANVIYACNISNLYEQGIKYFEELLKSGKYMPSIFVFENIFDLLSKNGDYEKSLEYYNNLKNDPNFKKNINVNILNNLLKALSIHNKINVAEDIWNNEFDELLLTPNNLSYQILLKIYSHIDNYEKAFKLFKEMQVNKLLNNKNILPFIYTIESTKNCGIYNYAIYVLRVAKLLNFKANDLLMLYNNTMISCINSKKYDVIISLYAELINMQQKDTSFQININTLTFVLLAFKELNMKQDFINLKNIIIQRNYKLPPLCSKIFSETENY
Assay: pull-down
Conditions: TRX tag removed; Pull-down: 10 mM HEPES pH 7.5, 20 mM KCl, 1 mM MgCl2, 1 mM DTT, room temperature 15 min; 400 nM biotinylated RNA, 800 nM protein (Results state 1:1 molar); recombinant protein; residues 121-608; label: 3' biotin (pull-down)

Sequence: ACGACAUUAUAAGGUCGGA [RNA oligo 2]
- binding result: binds
